Experiments:
[1] = test system: Mycobacterium tuberculosis H37Rv (ATCC 27294); test: Minimum Inhibitory Concentration (MIC), broth microdilution in 96-well plates; type: cell-based; settings: M. tuberculosis H37Rv, 10th day of incubation
[2] = test system: Mycobacterium tuberculosis H37Rv (ATCC 27294); settings: M. tuberculosis H37Rv; plated on 7H10 + OADC; 3 weeks of incubation; no colonies
[3] = concentration with no visible turbidity

`O=C(NCCCCCNC(=O)c1cc([N+](=O)[O-])cc([N+](=O)[O-])c1)c1cc([N+](=O)[O-])cc([N+](=O)[O-])c1` was tested, and the “MIC” value [1, 3] was 0.25 µg/mL and the “MIC” value ([1]; same MIC expressed in nM) was 509.80 nM.
With `O=C(NCCCCCOC(=O)c1cc([N+](=O)[O-])cc([N+](=O)[O-])c1)c1cc([N+](=O)[O-])cc([N+](=O)[O-])c1` the “MBC” value [2] was 0.5 µg/mL, the “MIC” value [1, 3] was 0.063 µg/mL and the “MIC” value ([1]; same MIC expressed in nM) was 128.21 nM.
In the case of `O=C(NCCOC(=O)c1cc([N+](=O)[O-])cc([N+](=O)[O-])c1)c1cc([N+](=O)[O-])cc([N+](=O)[O-])c1`, the “MIC” value [1, 3] is reported as greater than 16 µg/mL and the “MIC” value ([1]; same MIC expressed in nM) is reported as greater than 35600 nM.

From patent publication EP4345092A1, “NITROBENZAMIDE COMPOUNDS, METHODS AND USES THEREOF” (Faculdade de Farmácia da Universidade de Lisboa, priority 2022, dated 2024)
